Measurements: the supplement of paper PMC9931576
Human monoclonal antibodies against the spike receptor-binding domain (heavy:light variable regions). IC50 against pseudoviruses bearing the spike of naturally observed variants; lower = stronger; >10 µg/ml means not reached at the top dose. No active / inactive call. The stated detection limit is 0.0005 µg/ml; values near or below 0.001 µg/ml lie at the floor of the assay.

B1: DH1045 (protein)
chain 1: QLQLQESGPGLVKPSETLSLTCTVSGGSISSSGYYWGWIRQPPGKGLEWIGTIYYGGSTYYSPSLKSRVTISVDTSKNQFSLKLSSVTAADTAVYYCASQQWLRGNFDYWGQGTLVTVSS
chain 2: NFMLTQPHSVSESPGKTVTISCTGSSGSIASNYVQWYQQRPGSAPTTVIYEDNQRPSGVPDRFSGSIDSSSNSASLTISGLKTEDEADYYCQSYDSSTYWVFGGGTKLTVL
B2: BD56-451 (protein)
chain 1: EVQLVESGGGLVQPGRSLRLSCAASGYTFDEYAMHWVRQAPGKGLEWVSGISWNSGVIGYADSVKGRFIISRDNAKNSLYLQMNSLRAEDTALYYCAKGGQVHYNILTGYYDDEGGFDYWGQGTLVTVSS
chain 2: EIVMTQSPATLSVSPGERATLSCRASQSVSSNVAWYQQKPGQAPRLLIYGASTRATGIPARFSGSGSGTEFTLTISSLQSEDFAVYYCQQYNNGLYTFGQGTKLEI
B3: BD56-455 (protein)
chain 1: EVQLVESGGGLVQPGRSLRLSCAASGFSFEDYAMHWVRQAPGKGLEWVSGISWNGGTIGYADSVKGRFTISRDNAKNSLFLHMRSLRAEDTALYYCAKDIQGVTTVRGVIIEDSYGMDVWGQGTTVTVSS
chain 2: QSALTQPASVSGSPGQSITISCTGTSSDVGAYNYVSWYQQHPGKAPKLMIYDVSSRPSGVSNRFSGSKSGNTASLTISGLQADDEADYYCSSYTGSSTLVFGGGTKLTVL
B4: BD56-460 (protein)
chain 1: EVHLVESGGGLIQPGGSLRLSCAASEFIVSSNYMTWVRQAPGKGLEWVSLIYPGGSTFYADSVKGRFTISRDNSKNTLYLQMNSLRVEDTAVYYCARGDGSDLPFDFWGQGTLVTVSS
chain 2: QSALTQPASVSGSPGQSITISCTGTSSDLGGYHYVSWYQQHPGKAPKLMIFEVNNRPSGVSTRFSGSKSGNTASLTISGLQPEDEADYYCSSYASTTTHVLFGGGTKLTVL
B5: BD56-464 (protein)
chain 1: QVQLEQSGAEVKKPGTSVKVSCKASRGTLSTYAISWVRQAPGQGLDWLGRIIPMLGVTNYAQNFQDRVTITADKSTSTVYMELSTLTSEDTAVYYCSIDPEFTALTGGEFTQNFDFWGRGTLVTVSS
chain 2: EIVLTQSPGPLSLSPGERATLSCRASQSIRNTYFAWHQHKPGQTPRLLIYGASTRATGIPDRFSGSGSGTDFTLTISRLEPEDFAVYYCQQYDSSPWTFGQGTKVDIK
B6: DH1180 (protein)
chain 1: QVQLVESGGGVVQPGRSLRLSCAASGFTFSSYAMHWVRQAPDKGLEWVAVISYDGSNKYYADSVKGRFTISRDNSKNTLYLQLNSLRTEDTAVYYCAREDYYDSSGSLDYWGQGTLVTVSS
chain 2: QSALTQPASVSGSPGQSITISCTGTSSDVGGYNYVSWYQQHPGKAPKLMIYDVSNRPSGVSNRFSGSKSGNTASLTISGLQAEDEADYFCSSYTSSSTWVFGGGTKLTVL
B7: BD56-472 (protein)
chain 1: QVQLVQSGAEVKKPGSSVKVSCKASGGTFSSYAFSWVRQAPGQGLEWMGGIIPPFTTANYAQKFQGRVTITADESTSTAYMELSSLRSEDTAVYFCARVWFGELWGPHWYFDLWGRGTLITVSS
chain 2: DIQMTQSPSSLSASIGDRVTITCRASQSVSSYLNWYQQKPGKAPKLLIYAASSLQSGVPSRFSGSGSGTDFTLTISSLQPEDFATYYCQQSYSTTFGQGTKVEIK

target: SARS-CoV-2 Omicron BA.1 spike pseudovirus; assay: pseudovirus neutralization IC50; higher = weaker neutralization
Method: (§1)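 Single-round VSV luciferase pseudovirus mixed with antibody dilutions for 1 h and put on Huh-7 cells for about a day; IC50 from the dose curve.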

Row | Binder | pseudovirus neutralization IC50 [µg/mL]
1 | B1 | > 10
2 | B2 | 0.104
3 | B3 | 0.157
4 | B4 | 0.0186
5 | B5 | 0.763
6 | B6 | > 10
7 | B7 | 0.075

target: SARS-CoV-2 Omicron BA.2 spike pseudovirus; assay: as above
Method: as §1

Row | Binder | pseudovirus neutralization IC50 [µg/mL]
8 | B1 | > 10
9 | B2 | 0.0633
10 | B3 | 0.0872
11 | B4 | 0.0139
12 | B5 | 0.00399
13 | B6 | > 10
14 | B7 | 0.0649

target: SARS-CoV-2 Omicron BA.2.75 spike pseudovirus; assay: as above
Method: as §1

Row | Binder | pseudovirus neutralization IC50 [µg/mL]
15 | B1 | > 10
16 | B2 | 0.117
17 | B3 | 0.0963
18 | B4 | 3.7
19 | B5 | 0.0635
20 | B6 | > 10
21 | B7 | 0.0401

target: SARS-CoV-2 Omicron BA.5 spike pseudovirus; assay: as above
Method: as §1

Row | Binder | pseudovirus neutralization IC50 [µg/mL]
22 | B1 | > 10
23 | B2 | 1.49
24 | B3 | 3.8
25 | B4 | 1.82
26 | B5 | > 10
27 | B6 | > 10
28 | B7 | > 10

target: SARS-CoV-2 Omicron BQ.1.1 spike pseudovirus; assay: as above
Method: as §1

Row | Binder | pseudovirus neutralization IC50 [µg/mL]
29 | B1 | > 10
30 | B2 | > 10
31 | B4 | > 10
32 | B5 | > 10
33 | B6 | > 10
34 | B7 | > 10

target: SARS-CoV-2 Omicron XBB spike pseudovirus; assay: as above
Method: as §1

Row | Binder | pseudovirus neutralization IC50 [µg/mL]
35 | B1 | > 10
36 | B2 | > 10
37 | B4 | > 10
38 | B5 | > 10
39 | B6 | > 10
40 | B7 | > 10

target: SARS-CoV-2 early D614G spike pseudovirus; assay: as above
Method: as §1

Row | Binder | pseudovirus neutralization IC50 [µg/mL]
41 | B1 | 0.681
42 | B2 | 0.114
43 | B3 | 0.0165
44 | B4 | 0.00321
45 | B5 | 0.0016
46 | B6 | > 10
47 | B7 | 0.00712
